The supplement of paper PMC9931576
Human monoclonal antibodies against the spike receptor-binding domain (heavy:light variable regions). IC50 against pseudoviruses bearing the spike of naturally observed variants; lower = stronger; >10 µg/ml means not reached at the top dose. No active / inactive call. The stated detection limit is 0.0005 µg/ml; values near or below 0.001 µg/ml lie at the floor of the assay.

What was measured:
Test in all cases: pseudovirus neutralization IC50; higher = weaker neutralization
[1] = biological target: SARS-CoV-2 Omicron BA.1 spike pseudovirus
Protocol: (§1)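 Single-round VSV luciferase pseudovirus mixed with antibody dilutions for 1 h and put on Huh-7 cells for about a day; IC50 from the dose curve.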

[2] = biological target: SARS-CoV-2 Omicron BA.2 spike pseudovirus
Protocol: as §1

[3] = biological target: SARS-CoV-2 Omicron BA.2.75 spike pseudovirus
Protocol: as §1

[4] = biological target: SARS-CoV-2 Omicron BA.5 spike pseudovirus
Protocol: as §1

[5] = biological target: SARS-CoV-2 Omicron BQ.1.1 spike pseudovirus
Protocol: as §1

[6] = biological target: SARS-CoV-2 Omicron XBB spike pseudovirus
Protocol: as §1

[7] = biological target: SARS-CoV-2 early D614G spike pseudovirus
Protocol: as §1

Binder	pseudovirus neutralization IC50 [1]	pseudovirus neutralization IC50 [2]	pseudovirus neutralization IC50 [3]	pseudovirus neutralization IC50 [4]	pseudovirus neutralization IC50 [5]	pseudovirus neutralization IC50 [6]	pseudovirus neutralization IC50 [7]
BD56-1330 (protein) chain 1: EVQLVESGGGLVKPGGSLRLSCAASGFPFSTYGMNWVRQAPGKGLEWVSSISSSSSYISYADSVKGRFTISRDNAKNSLSLHMKSLRADDTAVYYCARDQRAHDEYSSGWLDYYYYNGMDVWGQGTTVTVSS chain 2: QSVLTQPPSVSAAPGQKVTISCSGSSSNVGSNYVSWYQQLPGTAPKLLIYDDNKRPSVIPDRFSGSKSGTSATLAITGLQTGDEADYYCGAWDSSLTGWVFGGGTKLTVL	0.13 µg/mL	0.0818 µg/mL	0.0348 µg/mL	0.13 µg/mL	2.34 µg/mL	1.61 µg/mL	0.0449 µg/mL
BD56-1333 (protein) chain 1: EVQLVESGGDLVQPGGSLRLSCAASGLIVSRNYMSWVRQAPGKGLEWVSVIYSGGSTFYADSVKGRFTISRDNSKNTLYLQMNSLGAEDTAIYYCARDLGVVGGTDVWGQGTTVTVSS chain 2: EIVMTQSPATLSVSPGERATLSCRASQSVSSNLAWYQQKPGQPPRLLIYGASTRATGIPARFSGSGSGTEFTLTISSLQSEDFALYYCQQYNNWPPMYTFGQGTKLEIK	0.00755 µg/mL	0.00111 µg/mL	0.00628 µg/mL	0.00623 µg/mL	0.468 µg/mL	0.472 µg/mL	0.00594 µg/mL
BD56-1336 (protein) chain 1: QVQLQESGPGLVKPSETLSLTCTVSGDSVSPYCWSWVRQPPGEGLEWIAYTYYSGSTYYNPSLKNRVSISVDTSKNQFSLKLSSVTAADTAVYYCARLQYWDYWYFDLWGRGTLVTVSS chain 2: QSALTQPASVSGSPGQSITISCSGTSSDVGGYNLVSWYQHHPGKAPKLLIYEGNKRPSGVSDRFSGSKSGNTASLTISGLQAEDEADYFCCSYAGSNTVVFGGRGGTKLTVL	> 10 µg/mL	> 10 µg/mL	> 10 µg/mL	> 10 µg/mL	> 10 µg/mL	> 10 µg/mL	> 10 µg/mL
BD56-1337 (protein) chain 1: QVQLVESGGGVVQSGRSLRLSCAASGFTFRRYGMHWVRQAPGKGLEWVAMIWYDGTNKYYADSVKGRFTISRDNSKNTLYLQMHSLKAEDTAVYYCARGFSSYDIMTGEEDAFDIWGQGTMVTVSS chain 2: QSVLTQPPSVSAAPGQKVTISCSGGSSNIGNNYVSWYQQLPGTAPKLLIYDNNKRPSGIPDRFSGSKSGTSATLGITGLQTGDEADYYCGTWDRSLGAVVFGGGTKLTVL	> 10 µg/mL	> 10 µg/mL	> 10 µg/mL	> 10 µg/mL	> 10 µg/mL	> 10 µg/mL	4.15 µg/mL
BD56-1325 (protein) chain 1: QITLKESGPTLVKPTQTLTLTCSFSGFSLTTSRVGVGWIRQPPGKALEWLALIYWDDDKRYNPSLKNRLTITKDTSKNQVVLKMTNMDPVDTATYYCAHSGDYYVSGSYRDEIWFDTWGQGALVTVSS chain 2: SYELTQPPSVSVSPGQTARITCSGDTLRNQYVYWYQQKPGQAPVLVIFKDSERPSGIPERFSGSNSGTPVTLTITEVQAEDEADYYCQSADSRGVKFGGGTKLSVL	> 10 µg/mL	> 10 µg/mL	> 10 µg/mL	> 10 µg/mL	> 10 µg/mL	> 10 µg/mL	> 10 µg/mL
BD56-1319 (protein) chain 1: QVQLVQSGAEVKKPGSSVRVSCKASGGNLINLALSWVRQAPGQGLEWMGGIVPILDITNYALKFQGRVTITADKSSSTAYMELSSLRSEDTAVYFCATGVRYCGGGSCNSAYFDSWGQGTLVTVSS chain 2: EIVLTQSPGTLSLSPGERATLSCRASQSISSSHLAWYQQKPGQAPRLLMYGASNRATGIPDRFSGSGSGTDFTLTISRLAPEDFAVYYCQQYGSSPQRTFGQGTKVEIK	0.012 µg/mL	0.00218 µg/mL	0.00351 µg/mL	1.58 µg/mL	1.43 µg/mL	> 10 µg/mL	0.00402 µg/mL
BD56-1328 (protein) chain 1: QVQLVQSGAEVKKPESSVKVSCKASGGTLIDYAVSWVRQAPGQGLEWMGTIVPIVDMSNYAKRFQGRVTITADKSTSTAYMEVRSLRSEDTAVYYCATGGQYCSGGFCSSSYFDSWGQGTLVTVSS chain 2: EIVLTQSPGTLSLSPGERATLSCRASQSISSAHLAWYQQKPGQAPRLLIYGASNRATGIPDRFSGSGSGTDFTLSISRLAPEDFAVYYCQQYSSSPQRTFGQGTKVEIK	0.00383 µg/mL	0.00104 µg/mL	0.00206 µg/mL	0.147 µg/mL	0.228 µg/mL	> 10 µg/mL	0.247 µg/mL
BD56-1332 (protein) chain 1: QVQLVESGGGVVQPGRSLRLSCAASGFTFSSYGMHWVRQAPGKGLEWVAVISYDGSNKHYGDSVKGRFTISRDKPKNTLYLQMNSLRVEDTAVYYCAKEVRGSSAFFSDGFDIWGQGTMVIVSS chain 2: SYVLTQPPSVSLAPGTTARITCGGDNIGSKSVHWYQQKPGQAPELVVYYDSDRPSGIPERFSGSNSGNTATLTISRVEAGDEADYYCQVWDIGVLFGGGTKLTVL	> 10 µg/mL	> 10 µg/mL	> 10 µg/mL	> 10 µg/mL	> 10 µg/mL	> 10 µg/mL	> 10 µg/mL
BD56-1324 (protein) chain 1: QVQLVESGGGVVQPGRSLRLSCEASGITFSGSGMHWVRQAPGKGLEWVALIWSDGRNKYYADFVKGRFTISRDNSKNTLYLQMNSLRAEDTAMYFCARETPGAGYPIDSWGQGTLVTVSS chain 2: SYVLTQPPSVSVAPGKTARIPCGGNNIGSKSVHWYQQKPGQAPVLVVYDDSDRPSGIRERFSGSKSGNTATLIISRVEAGDEADYYCQVWDSSGDHVVFGGGTKLTVL	0.693 µg/mL	0.26 µg/mL	0.312 µg/mL	6.47 µg/mL	> 10 µg/mL	1.65 µg/mL	1.26 µg/mL
BD56-1327 (protein) chain 1: QVQLVQSGAEVRKPGSSVKVSCKASGGSFNSHVISWVRQAPGHGLEWMGRIIPVLGIVDYAQKFQDRVTITADKSTGTAYMELSSLRSEDTAVFYCARHQNTATTFGIGHYYGLDVWGQGTTVTVSS chain 2: DIQMTQSPSTLSASVGDKVTITCRASQSISSWLAWYQQKPGKAPKLLISEASRLESGVPLRFSGSGSGTEFTLTISSLQPEDFATYYCQQYSTYPLFGQGTKVEIK	0.0998 µg/mL	0.0836 µg/mL	0.11 µg/mL	> 10 µg/mL	> 10 µg/mL	> 10 µg/mL	0.0785 µg/mL
BD56-1315 (protein) chain 1: QVQLVQSGAEVKKPGSSVKVSCKASGDTFSNFAISWVRKAPGQGLELMGGIIPTFGTSNYAQKFQGRLTITADESTTTAYMELSSLRFEDTALYYCARDLMFKGESWLDPWGQGTLVTVSS chain 2: SYVLTQPPSESVAPGKTARITCGGENIGSKSVHWYQQKPGQAPMLVVYDDGDRPSGIPERFSGSNSGNTATLTIGRVEAGDEAEYYCQVWDSFSDLHVVFGGGTKLTVL	> 10 µg/mL	> 10 µg/mL	> 10 µg/mL	> 10 µg/mL	> 10 µg/mL	> 10 µg/mL	> 10 µg/mL
BD56-1314 (protein) chain 1: EVQLVESGGGLVQPGGSLRLSCAASGFTFSNYDMHWVRQGRGKRLEWVSGIGTAGDTYHLDSVKGRFTISRENTRNSLYLQMNSLRDGDTAVYYCARGKDWLSWVFDSWGQGTLVTVSS chain 2: DIQMTQSPSSLSASVGDRVTITCRASQSINTYLNWYQQKPGKAPKLLIYAASTLQSGAPSRFSASGSGTDFTLTISSLQPEDFATYYCQQSYTMPPVTFGQGTRLEIK	3.17 µg/mL	4.24 µg/mL	> 10 µg/mL	> 10 µg/mL	> 10 µg/mL	> 10 µg/mL	4.61 µg/mL
